Anti-infective test results gathered from many reports (values: NIAID ChemDB through PubChem).

An empty or dashed field is not shown.

smiles	target	kind	tested at	method	species	read-out	strain	value
CCN(CC)CCNc1ccc(OC)cc1	-	culture	-	-	Mycobacterium tuberculosis	MIC	H37Rv	>100 µg/mL
COc1ccc(N2CCN(c3cncc(-c4ccsc4)n3)CC2)cc1OC	UL97 kinase	target	-	-	Cytomegalovirus	IC50	-	<10 µM
O/N=C/c1cc(O)ccc1O	-	culture	-	-	Mycobacterium tuberculosis	MIC	H37Rv	>100 µg/mL
CCOC(=O)NCCCc1ccc2oc3ccccc3c2c1	-	culture	12.5 µg/mL	BACTEC	Mycobacterium tuberculosis	inhibition	H37Rv	89%
CCOc1ccc(-c2cncc(N3CCN(c4ccc(OC)c(OC)c4)CC3)n2)cc1	UL97 kinase	target	-	-	Cytomegalovirus	IC50	-	<10 µM
O=C1C=C(c2ccc(O)cc2)C(=O)C=C1c1ccc(O)cc1	-	culture	-	-	Mycobacterium tuberculosis	MIC	H37Rv	50 µg/mL
Fc1ccc(N2CCCCC2)c(NC(=S)c2ccncc2)c1	Fes kinase	host protein	10 µM	kinase activity	-	inhibition	-	23%
CN(CCOC(=O)Nc1ccccc1)CCOC(=O)Nc1ccccc1	-	culture	-	-	Mycobacterium tuberculosis	MIC	H37Rv	>100 µg/mL
NC(=O)c1ccc(-c2cncc(N3CCN(c4ccncc4)CC3)n2)cc1	UL97 kinase	target	-	-	Cytomegalovirus	IC50	-	<1 µM
CSC(=S)NNC(C)c1nccc2ccccc12	-	culture	-	-	Mycobacterium tuberculosis	MIC	TAC-R	3.2 µg/mL
NCc1ccc(-c2cncc(N3CCN(C(=O)c4ccco4)CC3)n2)cc1	UL97 kinase	target	10 µM	-	Cytomegalovirus	inhibition	-	>15%
CO[C@H]1/C=C/O[C@@]2(C)Oc3c(C)c(OC(C)=O)c4c(c3C2=O)C(=O)C=C(NC(=O)/C(C)=C\C=C\[C@H](C)[C@H](O)[C@@H](C)[C@@H](O)[C@@H](C)[C@H](OC(C)=O)[C@@H]1C)C4=O	-	culture	-	-	Mycobacterium tuberculosis	MIC	PZA-R	0.03 µg/mL
NCCc1ccc(O)cc1	-	culture	-	-	Mycobacterium tuberculosis	MIC	H37Rv	>1600 µg/mL
CC(=O)N1Cc2c(N)nc(N)nc2C1C	-	culture	-	BACTEC	Mycobacterium tuberculosis	MIC bound	H37Rv	>12.5 µg/mL
Cl.Nc1ccc2nc[nH]c2c1	-	culture	-	-	Mycobacterium tuberculosis	MIC	H37Rv	>100 µg/mL
CO/C(=N\N=C\c1cccc(Cl)c1)c1ccncc1	-	culture	0.5 µM	BACTEC	Mycobacterium tuberculosis	inhibition	-	0%
CSc1ccc(-c2cncc(N3CCN(c4ccncc4)CC3)n2)cc1	UL97 kinase	target	-	-	Cytomegalovirus	IC50	-	<1 µM
Nc1nc2c(-c3ccc([N+](=O)[O-])cc3)nnn2c2ccccc12	-	culture	12.5 µg/mL	BACTEC	Mycobacterium tuberculosis	inhibition	H37Rv	-22%
CC1CC/C(=N/NC(N)=O)CC1C	-	culture	-	-	Mycobacterium tuberculosis	MIC	H37Rv	>100 µg/mL
CCOC(=O)/N=C1\SC2(CC(C)=C(C)CS2=O)C(O)=C1C(=O)OCC	-	culture	-	resazurin	Mycobacterium tuberculosis	MIC bound	H37Rv	>6.25 µg/mL
COc1ccc(N2CCN(c3cncc(-c4ccc(C(F)(F)F)cc4)n3)CC2)cc1	UL97 kinase	target	1 µM	-	Cytomegalovirus	inhibition	-	<50%

A second listing of 2 rows from above:

smiles	target	kind	tested at	method	species	read-out	strain	value
CC1CC/C(=N/NC(N)=O)CC1C	-	culture	-	-	Mycobacterium tuberculosis	MIC	H37Rv	>100 µg/mL
O/N=C/c1cc(O)ccc1O	-	culture	-	-	Mycobacterium tuberculosis	MIC	H37Rv	>100 µg/mL

Conditions beyond the fields shown may differ between rows. MIC bound: limit read from a one-dose screen. Inhibition is in % at the dose shown (toxicity tests: loss of growth or viability). ICn: concentration for n% inhibition.